Results deposited as PubChem BioAssay AID504761 (Drosophila RNAi Screening Center, 2011).
The screen tested about 22,000 reagents; this is an unselected part of those that have a named target and a result. In the full data, 116 (0.52%) were called active. 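Calls depend on retest data that are not deposited; infection was ranked per plate without normalising between plates; the unit of the infection score is not given.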 Raw values vary from plate to plate and are shown uncorrected. Names joined by + are all predicted targets of the reagent. Not given: the amount of reagent, the time to read-out.

Purpose: 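Genome-wide fly cell screen for genes dengue virus requires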 (primary screen)
Cells: D.Mel-2 cells from Drosophila
Knock-down reagent: long dsRNA against Drosophila genes
Treatment: infection with dengue virus type 2; dose and infection time not stated
Detection: 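Per well on two replicate plates, imaging gave the percent of cells positive for viral envelope protein, ranked by infection, and a nuclear count of cells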
Reading the numbers: infection score: higher = more virus-infected cells; cell count: higher = more cells in the well
Call rule: 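Low infection ranks in the two replicates (chance level up to 0.065) followed by a retest with a 1.5-fold or larger significant decrease, p below 0.05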
Calls: active = confirmed: knock-down lowers infection; inactive = not picked or not confirmed

Silencing of CG12020 [DRSC08226] gave: infection score, replicate 1 = 2.63; infection score, replicate 2 = 1.92; cell count, replicate 1 = 6356; cell count, replicate 2 = 6455; inactive.
With knock-down of CG12020 [DRSC28730], the record shows infection score, replicate 1 = 27.6; infection score, replicate 2 = 23.6; cell count, replicate 1 = 5723; cell count, replicate 2 = 5423; inactive.
For CG31099 [DRSC14252] the deposit lists infection score, replicate 1 = 3.06; infection score, replicate 2 = 10.7; cell count, replicate 1 = 6853; cell count, replicate 2 = 6760; inactive.
With knock-down of CG31099 [DRSC23973] the results were infection score, replicate 1 = 2.9; infection score, replicate 2 = 1.24; cell count, replicate 1 = 6789; cell count, replicate 2 = 7104; inactive.
Knock-down of CG4360 [DRSC15566] gave: infection score, replicate 1 = 10.6; infection score, replicate 2 = 0.39; cell count, replicate 1 = 4065; cell count, replicate 2 = 5861; inactive.
Depletion of CG4360 [DRSC30049] came out at: infection score, replicate 1 = 22.9; infection score, replicate 2 = 4.46; cell count, replicate 1 = 5459; cell count, replicate 2 = 6412; inactive.
Hsp60D [DRSC02543] showed infection score, replicate 1 = 2.99; infection score, replicate 2 = 2.85; cell count, replicate 1 = 6857; cell count, replicate 2 = 6531; inactive.
With knock-down of Hsp60D [DRSC29118] the results were infection score, replicate 1 = 18.4; infection score, replicate 2 = 21.1; cell count, replicate 1 = 1464; cell count, replicate 2 = 3656; inactive.
Silencing of Acp65Aa [DRSC09663] gave: infection score, replicate 1 = 3.55; infection score, replicate 2 = 2.55; cell count, replicate 1 = 5883; cell count, replicate 2 = 6038; inactive.
With knock-down of Acp65Aa [DRSC26708], the record shows infection score, replicate 1 = 4.14; infection score, replicate 2 = 1.04; cell count, replicate 1 = 6187; cell count, replicate 2 = 6135; inactive.
Ir94b [DRSC21439] scored infection score, replicate 1 = 3.73; infection score, replicate 2 = 2.46; cell count, replicate 1 = 5817; cell count, replicate 2 = 6191; inactive.

3 entries already listed, ordered by “cell count, replicate 1”, lowest first.
Hsp60D [DRSC29118] — infection score, replicate 1 = 18.4; infection score, replicate 2 = 21.1; cell count, replicate 1 = 1464; cell count, replicate 2 = 3656; Call = inactive
CG4360 [DRSC30049] — infection score, replicate 1 = 22.9; infection score, replicate 2 = 4.46; cell count, replicate 1 = 5459; cell count, replicate 2 = 6412; Call = inactive
Hsp60D [DRSC02543] — infection score, replicate 1 = 2.99; infection score, replicate 2 = 2.85; cell count, replicate 1 = 6857; cell count, replicate 2 = 6531; Call = inactive

The results go on.
With knock-down of CG7755 [DRSC07040], the record shows cell count, replicate 1 = 343; cell count, replicate 2 = 413; inactive.
With knock-down of CG42820 + CG42819 [DRSC02264], the record shows infection score, replicate 1 = 4.13; infection score, replicate 2 = 15.2; cell count, replicate 1 = 6107; cell count, replicate 2 = 6098; inactive.
Depletion of CG42820 + CG42819 [DRSC02265] came out at: infection score, replicate 1 = 4.63; infection score, replicate 2 = 5.72; cell count, replicate 1 = 5913; cell count, replicate 2 = 2607; inactive.
After knock-down of CG31230 [DRSC22130], the screen gave infection score, replicate 1 = 2.88; infection score, replicate 2 = 5.04; cell count, replicate 1 = 6418; cell count, replicate 2 = 7207; inactive.
With knock-down of CG31230 [DRSC26678], the screen gave infection score, replicate 1 = 1.6; infection score, replicate 2 = 3.45; cell count, replicate 1 = 6832; cell count, replicate 2 = 5657; inactive.
sac [DRSC12237] scored infection score, replicate 1 = 2.43; infection score, replicate 2 = 15.4; cell count, replicate 1 = 6668; cell count, replicate 2 = 3357; inactive.
Knock-down of sac [DRSC27045] resulted in: infection score, replicate 1 = 4.36; infection score, replicate 2 = 1.55; cell count, replicate 1 = 6471; cell count, replicate 2 = 6397; inactive.
Depletion of CG7011 [DRSC09347] gave: infection score, replicate 1 = 2.59; infection score, replicate 2 = 5.82; cell count, replicate 1 = 5493; cell count, replicate 2 = 5686; inactive.
With knock-down of CG7011 [DRSC28334], the screen gave infection score, replicate 2 = 6.05; cell count, replicate 1 = 361; cell count, replicate 2 = 6167; inactive.
CR14117 [DRSC10121] scored infection score, replicate 1 = 0.67; infection score, replicate 2 = 0.52; cell count, replicate 1 = 6442; cell count, replicate 2 = 6320; inactive.
CR14117 [DRSC25950] scored infection score, replicate 1 = 1.23; infection score, replicate 2 = 9.62; cell count, replicate 1 = 6676; cell count, replicate 2 = 5728; inactive.
For mRpL27 [DRSC22568], the values are infection score, replicate 1 = 4.25; infection score, replicate 2 = 16; cell count, replicate 1 = 6352; cell count, replicate 2 = 5763; inactive.
Depletion of CG31178 [DRSC14590] resulted in: infection score, replicate 1 = 10.1; infection score, replicate 2 = 6.11; cell count, replicate 1 = 3027; cell count, replicate 2 = 6875; inactive.
For CG1441 [DRSC06448], the entry reads infection score, replicate 1 = 25.8; infection score, replicate 2 = 21.5; cell count, replicate 1 = 5138; cell count, replicate 2 = 5877; inactive.
Knock-down of CG1441 [DRSC27028] gave: infection score, replicate 1 = 3.97; infection score, replicate 2 = 6.89; cell count, replicate 1 = 6504; cell count, replicate 2 = 6327; inactive.
CG3734 [DRSC15509] scored infection score, replicate 1 = 2.13; infection score, replicate 2 = 9.28; cell count, replicate 1 = 6912; cell count, replicate 2 = 5875; inactive.
Depletion of CG3734 [DRSC25892] resulted in: infection score, replicate 1 = 4.69; infection score, replicate 2 = 4.26; cell count, replicate 1 = 6526; cell count, replicate 2 = 6781; inactive.
